Experimental findings from PubChem BioAssay AID504329 (Southern Research Specialized Biocontainment Screening …, 2011) are described below.

SMILES strings stand for the structures. The list shows a part of the results. Measured potencies and affinities stand elsewhere. Activity calls are given as the source filed them. Rule as the data show it: inconclusive = inhibition above about 27% without an active follow-up result; inactive = below that.

As usually defined, the inhibition is the relative decrease from the control value, in per cent.

The nature of the test: H1N1 influenza NS1A inhibitors, functional cell based assay (AID 504329). Particulars: percent inhibition, at 12.5 µM, stronger effect = higher value.
In the case of `O=[N+]([O-])c1ccc(Nc2ccc(Oc3ccc([N+](=O)[O-])cc3[N+](=O)[O-])cc2)c([N+](=O)[O-])c1`, the inhibition was inactive: -19.7%.
The value for `Cc1cc(SC(NC=O)C(Cl)(Cl)Cl)ncn1` (centres undefined) was inactive: 0.63%; that for `O=P(Nc1ccccn1)(c1cccc2ccccc12)c1cccc2ccccc12` was inactive: -7.53%; that for `COP1(=S)c2c(C)nn(CCC#N)c2N=C(c2ccc(F)cc2)N1C` (centres undefined) was inactive: -1.89%.
In the case of `O=C(Nc1ccncc1[N+](=O)[O-])c1ccc([N+](=O)[O-])cc1[N+](=O)[O-]`, the inhibition is inactive: -1.35%.
The value for `O=C(COc1ccccc1)OC1CN2CCC1CC2` (centres undefined) was inactive: -0.45%; that for `CCOC(=O)c1ccc(NC(=O)C(C)(CCl)SC)cc1` (centres undefined) was inactive: -20.4%.
For `O=C(OC1CN2CCC1CC2)c1cccc([N+](=O)[O-])c1` (centres undefined), the inhibition was inactive: -2.79%.
With `Cc1cc(=O)[nH]c(N[N+](=O)[O-])n1`, the inhibition is inactive: 1.52%.
As for `O=C(OC1CN2CCC1CC2)C12CC3CC(CC(C3)C1)C2` (centres undefined), the inhibition was inactive: -3.79%.
The value for `Cc1c2c(nc3ccccc13)SC(C(Cl)Cl)C2` (centres undefined) was inactive: -0.48%; that for `COc1cc(I)ccc1[As](=O)(O)O` was inactive: -7.01%.
To `COc1ccc2nc(NP(=O)(c3ccccc3)c3ccccc3)sc2c1` belongs inactive: 4.47%; to `O=P1(N(CCCl)CCCl)Nc2ccccc2N1`, inactive: 0.67%; to `O=P1(N(CCCl)CCCl)OCCCN1CCCl` (centres undefined), inactive: -4.25%.
The value for `COc1ccc(N/C(=N/P(=O)(N2CCOCC2)N2CCOCC2)N2CCOCC2)cc1` was inactive: 7.43%.
In the case of `O=[N+]([O-])c1cc(Oc2ccc([N+](=O)[O-])cc2C(F)(F)F)cc([N+](=O)[O-])c1`, the inhibition is inactive: 15.8%.
As to `O=[N+]([O-])c1ccc(-c2cc([N+](=O)[O-])c(O)c([N+](=O)[O-])c2)cc1`, the inhibition was inactive: 8.17%.
In the case of `COc1cc(C(=O)NCC2(N3CCOCC3)CCCCC2)ccc1OCC(C)C`, the inhibition was inactive: 5.06%.
The value for `C[As](=O)(O)c1cccc(C(=O)O)c1` was inactive: -24.5%; that for `O=[As](O)(c1ccc(O)cc1)c1ccccc1O` was inactive: -6.51%; that for `Cc1ccc2nc3c(c(C)c2c1)CC(C(Cl)Cl)S3` (centres undefined) was inactive: 10.9%.
The value for `Cc1ccc(OP(=O)(Nc2ccc([N+](=O)[O-])cn2)Oc2ccc(C)cc2)cc1` was inactive: 0.36%; that for `COC(=O)C1(C)COP(=O)(N2CCCCCC2)OC1` (centres undefined) was inactive: -8.63%; that for `CC(C)c1ccc(OP(=O)(Nc2ccccn2)Oc2ccccc2F)cc1` (centres undefined) was inactive: -12.9%.
To `ClCCSc1nnc(-c2cccnc2)o1` belongs inactive: -2.74%; to `O=[N+]([O-])c1cc([N+](=O)[O-])c(-c2ccn[nH]2)s1`, inactive: -0.24%.
Consider `O=C(OC1CN2CCC1CC2)c1cccc2[nH]cnc12` (centres undefined), for which the inhibition is inactive: -1.46%.
On to `CCN(CC)C(=S)SC(NC=O)C(Cl)(Cl)Cl` (centres undefined), for which the inhibition is inactive: -6.42%.
